Results: US7122193B1 (priority 1994, dated 2006)

Molecular target: serum of guinea-pigs immunized against peptide 141-159 (variant USA)
Test: BIAcore competition; immobilised (c) FP-L as competitor; serum 1:10

Substance: FP peptide (region 141-159 of VP1 of FMDV serotype A12, strain USA, with N-terminal cysteine), L form
- amount of inhibitor peptide required to inhibit by 50% the bonding: 25 µg
